A mixed list of measured activities; the numbers were collected in NIAID ChemDB.

All rows: toxicity to cultured cells; measure: CC50

Blank or dashed fields: not listed here.

| smiles | cells | method | result |
|---|---|---|---|
| COc1ccc2nc(Cl)c(/C=C/C(=O)c3cc(C)cs3)cc2c1 | PBMC | MTS | 15.5 µM |
| Cn1c2nc3ccccc3c-2cc2ccccc21 | L6 | resazurin | 3.194 µM |
| Nc1nc2c(ncn2C[C@H]2CO[C@H](P(=O)(O)O)O2)c(=O)[nH]1 | FLOW 2002 |  | >100 µg/mL |
| N[C@@H](CCC(=O)O)C(=O)O[C@@H]1C=C(C(=O)O)[C@@H]2[C@H](C1)C(CO)=C[C@@H]2O | L6 rat skeletal myoblasts | resazurin | 60.4 µg/mL |
| Cc1ccc2nc(Cl)c(/C=C/C(=O)c3cc(Cl)sc3Cl)cc2c1 | PBMC | MTS | 10.6 µM |
| COc1ccc(Nc2nc(NCCCNc3ccnc4cc(Cl)ccc34)nc(N3CCOCC3)n2)cc1 | LLC-Pk11 |  | 27.8 µM |
| COc1ccc2nc(Cl)c(/C=C/C(=O)c3ccc(C)s3)cc2c1 | PBMC | MTS | 13 µM |
| Cc1cn([C@H]2C=C[C@@H](COC(=O)CCCCCCCCCCCBr)O2)c(=O)[nH]c1=O | P4R5 |  | >200 µM |
| CCCCCCCCCN1C[C@H](O)[C@@H](O)[C@H](O)[C@H]1CO | Huh7.5 | MTT | 87 µM |
| CCOC(=O)c1cnc(Cc2ccccc2)c2cc(OC)ccc12 | HEK293T | trypan blue | 140 µM |
| C=Cn1ccc(=O)c2ccc(-c3ccncc3)cc21 | HPB-ALL | luminescence | 97.6 µM |
| Nc1ccc(-c2n[nH]c(=O)n2-c2ccccc2)cc1 | P-388 |  | >5 µg/mL |
| Cn1cc(NC(=O)Nc2cc(C(=O)Nc3cc(C(=O)Nc4ccc(S(=O)(=O)O)c5cc(S(=O)(=O)O)ccc45)n(C)c3)n(C)c2)cc1C(=O)Nc1cc(C(=O)Nc2ccc(S(=O)(=O)O)c3cc(S(=O)(=O)O)ccc23)n(C)c1 | Monocytes MIP-1alpha |  | <200 µM |
| O=C(N/N=C/c1ccc(O)c(Br)c1)Nc1cccc2nsnc12 | Cf2Th-CD4/CCR5 | luminescence | >112 µM |
| CCOC(=O)c1c(CS(=O)(=O)c2ccccc2)n(C)c2ccc(CN(C)C)cc12 | Huh7.5 | resazurin | >50 µM |
| O=c1ccn(-c2ccc(F)cc2)c2cc(-c3ccncc3)ccc12 | HPB-ALL | luminescence | 71.7 µM |
| O=c1c2ncn(COCCO)c2nc2[nH]c(-c3ccccc3)c(Cc3ccc(F)cc3)n12 | OST TK-/HSV-1 TK+ |  | 0.73 µg/mL |
| CN1CCN(c2ccnc3nc(CN(CCCCN)Cc4ncccc4N4CCOCC4)[nH]c23)CC1 | C8166 | MTT | >10 µM |
| Cc1ccc2nc(Cl)c(/C=C/C(=O)c3ccc4c(c3)OCCO4)cc2c1 | PBMC | MTS | 43.7 µM |
| O=C(N/N=C/c1cccc(F)c1)Nc1cccc2nsnc12 | Cf2Th-CD4/CCR5 | luminescence | 69.4 µM |
| CCCCN1C[C@H](O)[C@@H](O)[C@H](O)[C@H]1CO | Huh7.5 | MTT | >500 µM |
| Cc1ccc2nc(Cl)c(/C=C/C(=O)c3ccc(Br)s3)cc2c1 | PBMC | MTS | 16.3 µM |
| Nc1cc(N2CCC(=O)c3ccc(-n4ccnc4)cc32)c(F)cc1F | HPB-ALL | luminescence | 17.6 µM |
| Nc1nc2c(ncn2C[C@@H]2CC[C@H](P(=O)(O)O)O2)c(=O)[nH]1 | FLOW 2002 |  | >100 µg/mL |
| CS[C@@]1(Cc2ccccc2)NC(=O)[C@@](O)(Cc2ccccc2)NC1=O | 293T | luminescence | >100 µM |
| CCCNCc1ccc(OCC(=O)OCC)cc1 | BJ |  | >20 µM |
| O=c1ccn(-c2ccc(F)cc2)c2cc(-c3ccncc3)c(F)cc12 | HPB-ALL | luminescence | >500 µM |
| Cc1cn([C@H]2C[C@H](F)[C@@H](CO)O2)c(=O)[nH]c1=O | MAGI | MTT | >100 µg/mL |
| O=C(N/N=C/c1ccc(Cn2cccn2)cc1)Nc1cccc2nsnc12 | Cf2Th-CD4/CCR5 | luminescence | 37.3 µM |
| COc1ccc(-c2[nH]c3nc4c(ncn4COCCO)c(=O)n3c2C)cc1 | OST TK-/HSV-1 TK+ |  | 0.012 µg/mL |
| CCOC(=O)CCCCCOc1cccc(CN(C(=O)c2ccc(-c3cccc(O)c3)cc2)C(C)C)c1 | RAJI |  | >20 µM |
| Nc1nc2c(ncn2C[C@H]2CC[C@@H](P(=O)(O)O)O2)c(=O)[nH]1 | FLOW 2002 |  | >100 µg/mL |
| COc1ccc(/C=N/NC(=O)Nc2cccc3nsnc23)cc1O | Cf2Th-CD4/CCR5 | luminescence | 11.6 µM |
| CSc1nsc(-c2cc[n+](C)cc2)c1C#N | L929 |  | 1000 µM |
| CC(C)N(Cc1cccc(OCCCCCC(=O)OC(=O)O)c1)C(=O)c1ccc(-c2cccc(S(C)(=O)=O)c2)cc1 | BJ |  | >20 µM |
| Cc1ccc2nc(Cl)c(/C=C/C(=O)c3ccc(I)s3)cc2c1 | PBMC | MTS | 32 µM |
| COc1ccc(/C=N/NC(=O)Nc2cccc3nsnc23)cc1 | Cf2Th-CD4/CCR5 | luminescence | >112 µM |
| COc1cc2nc(N3CCCN(C)CC3)nc(NC3CCN(Cc4ccccc4)CC3)c2cc1OC | MEF | fluorescence | 11 µM |
| Nc1nc(N)c2nc(CNc3ccc(C(=O)NC(CP(=O)(O)O)C(=O)O)cc3)cnc2n1 | L1210/R81 |  | 390 µM |
| COc1cc(/C=N/NC(=O)Nc2cccc3nsnc23)cc(OC)c1OC | Cf2Th-CD4/CCR5 | luminescence | >112 µM |
| CS[C@@]12CC3=CC=C[C@H](O)[C@H]3N1C(=O)[C@]13C[C@H]4C(=O)[C@H](C[C@H](O)[C@H]4N1C2=O)S3 | 293T | luminescence | >100 µM |
| CN(Cc1nc2ccccc2[nH]1)C1CCCc2cccnc21 | C8166 | MTT | 10 µM |
| CCSCCCCCCCCCCCC(=O)OC[C@@H]1C=C[C@H](n2cc(C)c(=O)[nH]c2=O)O1 | P4R5 |  | >200 µM |
| CN(CCc1ccccc1)Cc1c(CC2CCCCC2)[nH]c2ccnc(Cl)c12 | HEK293T | MTT | 19.1 µg/mL |
| CN1CCN(c2ccnc3nc(CN(CCCCN)Cc4ncccc4CCC#N)[nH]c23)CC1 | C8166 | MTT | >10 µM |
| N#Cc1csnc1-c1ccccc1 | L929 |  | 100 µM |
| O=c1c2ncn(COCCO)c2nc2[nH]c(-c3ccccc3)c(Cc3ccccc3)n12 | OST TK-/HSV-1 TK+ |  | 0.29 µg/mL |
| CCOC(=O)CCCCCOc1cccc(CN(C(=O)c2ccc(-c3cccc4ccccc34)cc2)C(C)C)c1 | BJ |  | >20 µM |
| CCC(O)(CC)CCCCCCN1C[C@H](O)[C@@H](O)[C@H](O)[C@H]1CO | Huh7.5 | MTT | >500 µM |
| CS[C@@]1(Cc2ccccc2)NC(=O)[C@](O)(Cc2ccccc2)NC1=O | 293T | luminescence | >100 µM |
| CSc1nsc(-c2ccncc2)c1C#N | L929 |  | 2.5 µM |
| CCOC(=O)c1c(CS(=O)(=O)c2ccccc2)n(C)c2ccc(CN3CCCNCC3)cc12 | Huh7.5 | resazurin | >50 µM |
| O=C(O)c1cc(-c2ccco2)nc2ccccc12 | BJ |  | >20 µM |
| CCOC(=O)c1c(CS(=O)(=O)c2ccccc2)n(C)c2ccc(CN3CCN(C)CC3)cc12 | Huh7.5 | resazurin | >50 µM |
| Nc1nc(N)c2ncn(C[C@H]3CO[C@H](P(=O)(O)O)O3)c2n1 | FLOW 2002 |  | 100 µg/mL |
| Cc1ccc2nc(Cl)c(/C=C/C(=O)c3ccsc3)cc2c1 | PBMC | MTS | 10.7 µM |
| CSc1nsc(-c2ccc(C(F)(F)F)cc2)c1C#N | HEP-2 |  | 14 µM |
| Cc1csc(C(=O)/C=C/c2cc3cc(C)ccc3nc2Cl)c1 | PBMC | MTS | 42.9 µM |
| CSc1nsc(-c2ccc(OCc3ccccc3)cc2)c1C#N | HEP-2 |  | >50 µM |
| CCOC(=O)CC(=O)NCC(OCC)(OCC)c1ccc2c(c1)OCO2 | BJ |  | <7.5 µM |
| Nc1nc(N)c2nc(CNc3ccc(C(=O)NC(CCCCP(=O)(O)O)C(=O)O)cc3)cnc2n1 | L1210/R81 |  | >280 µM |
| CCc1ccc(Nc2nc(NCCCCNc3ccnc4cc(Cl)ccc34)nc(N3CCOCC3)n2)cc1 | LLC-Pk11 |  | 24.3 µM |
| CCCN(Cc1cccc(OCCCCCC(=O)OCC)c1)C(=O)c1ccc(Br)cc1 | BJ |  | >20 µM |
| O=C(N/N=C/c1ccc(O)c([N+](=O)[O-])c1)Nc1cccc2nsnc12 | Cf2Th-CD4/CCR5 | luminescence | >112 µM |
| O=c1ccn(-c2ccc(F)cc2)c2cc(-n3cncn3)ccc12 | HPB-ALL | luminescence | 120.3 µM |

CCn: concentration that lowers growth or viability of the cells by n%. Rows are shuffled and stem from different studies.